Pooled drug test results. Numbers come from NIAID ChemDB, via PubChem.

MIC bound comes from a single tested concentration.

C#CC[C@@H](C(=O)N[C@H](/C=C/C(=O)OCC)C[C@@H]1CCNC1=O)n1cccc(NC(=O)c2cc(C)on2)c1=O ; read by: cytopathic effect / XTT ; strain or isolate: Serotype 23 ; kind: culture ; cells: H1-HELA ; species: Rhinovirus ; endpoint: EC50 ; value: 0.032 µM
c1ccc2cc(-c3cncc(NCCc4ccncc4)n3)ccc2c1 ; kind: target ; species: Cytomegalovirus ; protein: UL97 kinase ; endpoint: IC50 ; value: <1 µM
CCN1CC2(COC(=O)c3ccccc3N3C(=O)C[C@H](C)C3=O)CC[C@@H](OC)C34C5CC6[C@H](OC)C5C5(C[C@@H]6OC)OCOC5(C13)[C@H](OC)C24 ; read by: BACTEC ; dose: 12.5 µg/mL ; strain or isolate: H37Rv ; kind: culture ; species: Mycobacterium tuberculosis ; endpoint: inhibition ; value: -25%
O=C(Nc1nnc(NCCc2cccs2)s1)c1ccc(I)cc1 ; kind: target ; species: Human cytomegalovirus ; protein: Polymerase ; endpoint: IC50 ; value: >25 µM
COc1ccc(/C=C/C(=O)c2cccc(F)c2O)cc1 ; dose: 12.5 µg/mL ; strain or isolate: H37Rv ; kind: culture ; species: Mycobacterium tuberculosis ; endpoint: inhibition ; value: 45%
COC1CC2CCC(C)C(O)(O2)C(=O)C(=O)N2CCCCC2C(=O)OC(C(C)CC2CCC(O)C(OC)C2)CC(=O)C(C)C=C(C)C(OC(=O)CCCN2CCCC2)C(OC)C(=O)C(C)CC(C)/C=C\C=C/C=C1C ; read by: BACTEC ; dose: 12.5 µg/mL ; strain or isolate: H37Rv ; kind: culture ; species: Mycobacterium tuberculosis ; endpoint: inhibition ; value: 1%
O=C(/C=C/c1ccccc1)c1ccc(Cl)cc1O ; kind: culture ; species: Mycobacterium tuberculosis ; endpoint: EC50 ; value: <12.5 µg/mL
COc1cc(C[C@H](C)[C@H](C)Cc2ccc(O)c(O)c2)ccc1O ; read by: broth dilution ; strain or isolate: CCC 117-2000 ; kind: culture ; species: Candida krusei ; endpoint: MIC80 ; value: 125 µg/mL
Nc1cccc(NC(=O)c2ccccc2)c1 ; strain or isolate: H37Rv ; kind: culture ; species: Mycobacterium tuberculosis ; endpoint: MIC ; value: 100 µg/mL
C=CCNc1nc2c(s1)C(=O)c1ccccc1C2=O ; read by: BACTEC ; dose: 12.5 µg/mL ; strain or isolate: H37Rv ; kind: culture ; species: Mycobacterium tuberculosis ; endpoint: inhibition ; value: 100%
O=C1NC(CCO)C(=O)NC1CCO ; strain or isolate: H37Rv ; kind: culture ; species: Mycobacterium tuberculosis ; endpoint: MIC ; value: >100 µg/mL
Cc1c2c(cc3c4ccccc4n(CC4CO4)c13)C(c1ccc(Cl)cc1)=NCC2 ; read by: resazurin ; dose: 6.25 µg/mL ; strain or isolate: H37Rv ; kind: culture ; species: Mycobacterium tuberculosis ; endpoint: inhibition ; value: 41%
COc1ccc(-c2cncc(N3CCN(c4ccc(C)cc4)CC3)n2)cc1F ; dose: 10 µM ; kind: target ; species: Cytomegalovirus ; protein: UL97 kinase ; endpoint: inhibition ; value: >15%
CC(=O)n1cc(/C=C2\N=C(c3ccccc3)OC2=O)c2ccccc21 ; read by: BACTEC ; strain or isolate: H37Rv ; kind: culture ; species: Mycobacterium tuberculosis ; endpoint: MIC bound ; value: >6.25 µg/mL
Cc1cc(S(=O)(=O)O)c(C)cc1N ; strain or isolate: H37Rv ; kind: culture ; species: Mycobacterium tuberculosis ; endpoint: MIC ; value: >100 µg/mL
O=C1c2c(O)ccc(O)c2C(=O)c2c(NCCCO)ccc(NCCCO)c21 ; read by: BACTEC ; strain or isolate: H37Rv ; kind: culture ; species: Mycobacterium tuberculosis ; endpoint: MIC bound ; value: >12.5 µg/mL
CCO/N=C/c1ccc(OCCC2CCN(c3ccc(C)nn3)CC2)cc1 ; read by: neutral red ; strain or isolate: 209 (ICAM-1 receptor group 39) ; kind: culture ; cells: KB ; species: Rhinovirus ; endpoint: EC50 ; value: 0.001 µM
Cc1cn(CCCOc2c3occc3cc3ccc(=O)oc23)c(=O)[nH]c1=O ; strain or isolate: H37Rv ; kind: culture ; species: Mycobacterium tuberculosis ; endpoint: MIC ; value: >100 µg/mL
Cc1ccc(N2CCN(c3cncc(-c4cccc(C)c4)n3)CC2)cc1 ; dose: 10 µM ; kind: target ; species: Cytomegalovirus ; protein: UL97 kinase ; endpoint: inhibition ; value: >15%
NS(=O)(=O)c1ccc(CCNc2nnc(NC(=O)CCCCCl)s2)cc1 ; kind: target ; species: Human cytomegalovirus ; protein: Polymerase ; endpoint: IC50 ; value: >25 µM
COc1ccc(C(C)OC(C)c2ccc(OC)cc2)cc1 ; strain or isolate: H37Rv ; kind: culture ; species: Mycobacterium tuberculosis ; endpoint: MIC ; value: >100 µg/mL
O=C1c2cccc(NCC3CO3)c2C(=O)c2cccc(NCC3CO3)c21 ; read by: BACTEC ; dose: 12.5 µg/mL ; strain or isolate: H37Rv ; kind: culture ; species: Mycobacterium tuberculosis ; endpoint: inhibition ; value: 99%
C(=C\c1ccnc(/C=C/c2ccccc2)c1)/c1ccccc1 ; strain or isolate: H37Rv ; kind: culture ; species: Mycobacterium tuberculosis ; endpoint: MIC ; value: 50 µg/mL
O=c1c2cccc3c4ccccc4c4sc5ccccc5n1-c4c23 ; read by: BACTEC ; strain or isolate: H37Rv ; kind: culture ; species: Mycobacterium tuberculosis ; endpoint: MIC bound ; value: >12.5 µg/mL
CCC1(c2ccccc2)C(=O)NC(=O)NC1=O ; strain or isolate: H37Rv ; kind: culture ; species: Mycobacterium tuberculosis ; endpoint: MIC ; value: >100 µg/mL
O=C1c2c(O)cc(O)cc2O[C@H](c2ccc(O)cc2)[C@H]1c1c(O)cc(O)c2c(=O)cc(-c3ccc(O)c(O)c3)oc12 ; strain or isolate: H37Rv ; kind: culture ; species: Mycobacterium tuberculosis ; endpoint: EC50 ; value: >12.5 µg/mL
OC1(C#CC2(O)CCC3CCCCC3C2)CCC2CCCCC2C1 ; strain or isolate: H37Rv ; kind: culture ; species: Mycobacterium tuberculosis ; endpoint: MIC ; value: >100 µg/mL
COc1ccc(C2Oc3c(I)cccc3C(=O)C2O)cc1 ; kind: culture ; species: Mycobacterium tuberculosis ; endpoint: EC50 ; value: >12.5 µg/mL
O=[N+]([O-])c1ccc(CO)cc1 ; strain or isolate: H37Rv ; kind: culture ; species: Mycobacterium tuberculosis ; endpoint: MIC ; value: 100 µg/mL
O=S(=O)([O-])c1cccc(O)c1 ; read by: cytopathic effect ; dose: 10 µg/mL ; kind: culture ; cells: Human amnion AV3 cells ; species: Herpes simplex virus ; endpoint: inhibition ; value: 10%
CCCCCCCCCCC[C@@H]1CCC[C@@H](C)N1 ; strain or isolate: PAS-R ; kind: culture ; species: Mycobacterium tuberculosis ; endpoint: MIC ; value: 6.4 µg/mL
O=S(=O)(O)c1cccc2c(O)cccc12 ; read by: cytopathic effect ; dose: 5 µg/mL ; strain or isolate: TYPE 3 ; kind: culture ; cells: Human amnion AV3 cells ; species: Adenovirus ; endpoint: inhibition ; value: 0%
Cl.NCCN ; strain or isolate: H37Rv ; kind: culture ; species: Mycobacterium tuberculosis ; endpoint: MIC ; value: >100 µg/mL
CCOc1ccc2ccccc2c1C(=O)Nc1nnc(NC2CC2)s1 ; kind: target ; species: Human cytomegalovirus ; protein: Polymerase ; endpoint: IC50 ; value: >25 µM
CC(=O)c1ccc(-c2cncc(N3CCN(c4cccc(Cl)c4)CC3)n2)cc1 ; kind: target ; species: Cytomegalovirus ; protein: UL97 kinase ; endpoint: IC50 ; value: <10 µM
CCCCCCCCOCC(=O)O ; strain or isolate: H37Rv ; kind: culture ; species: Mycobacterium tuberculosis ; endpoint: MIC ; value: 100 µg/mL
CC(N=c1cc2n(-c3ccc(Cl)cc3)c3ccccc3nc-2cc1Nc1ccc(Cl)cc1)c1ccccc1 ; strain or isolate: ETA-R ; kind: culture ; species: Mycobacterium tuberculosis ; endpoint: MIC ; value: 0.4 µg/mL
O=C(Nc1nnc(NCCSc2ccccc2)s1)c1ccc(I)cc1 ; kind: target ; species: Human cytomegalovirus ; protein: Polymerase ; endpoint: IC50 ; value: >25 µM
CC(=O)Nc1cccc(/C=C/C(=O)c2ccccc2O)c1 ; dose: 12.5 µg/mL ; strain or isolate: H37Rv ; kind: culture ; species: Mycobacterium tuberculosis ; endpoint: inhibition ; value: 0%
Cc1[nH]nc(-c2cccnc2)c1N=NN1CCC(C(N)=O)CC1 ; read by: resazurin ; strain or isolate: H37Rv ; kind: culture ; species: Mycobacterium tuberculosis ; endpoint: MIC ; value: 1.56 µg/mL
CC(C)(CO)C(O)C(=O)[O-].[Na+] ; strain or isolate: H37Rv ; kind: culture ; species: Mycobacterium tuberculosis ; endpoint: MIC ; value: >100 µg/mL
Fc1ccc(-c2cncc(N3CCN(c4ccncc4)CC3)n2)cc1Cl ; kind: target ; species: Cytomegalovirus ; protein: UL97 kinase ; endpoint: IC50 ; value: <1 µM
CC(=O)Nc1ccc(S(=O)(=O)n2oc(=O)c(-c3ccccc3)c2N)cc1 ; read by: resazurin ; dose: 6.25 µg/mL ; strain or isolate: H37Rv ; kind: culture ; species: Mycobacterium tuberculosis ; endpoint: inhibition ; value: 28%
O=C(CNc1ccccc1)Nc1ccc2ccccc2c1[N+](=O)[O-] ; strain or isolate: H37Rv ; kind: culture ; species: Mycobacterium tuberculosis ; endpoint: MIC ; value: >100 µg/mL
O=S(=O)([O-])c1ccccc1S(=O)(=O)[O-] ; read by: cytopathic effect ; dose: 10 µg/mL ; kind: culture ; cells: Human amnion AV3 cells ; species: Herpes simplex virus ; endpoint: inhibition ; value: 0%
O=c1cc(CNc2ccccc2)c2ccccc2[nH]1 ; strain or isolate: H37Rv ; kind: culture ; species: Mycobacterium tuberculosis ; endpoint: MIC ; value: 25 µg/mL
Fc1ccc(N2CCCCC2)c(NC(=S)c2ccncc2)c1 ; read by: kinase activity ; dose: 10 µM ; kind: host protein ; protein: PKD1 ; endpoint: inhibition ; value: 0%
c1ccc2c(c1)ccc1c2nc2c3ccccc3[nH]n12 ; strain or isolate: H37Rv ; kind: culture ; cells: VERO ; species: Mycobacterium tuberculosis ; endpoint: MIC ; value: 0.39 µg/mL
O=C(Nc1nnc(NCCSc2ccccc2)s1)c1ccc(F)cc1F ; kind: target ; species: Human cytomegalovirus ; protein: Polymerase ; endpoint: IC50 ; value: >25 µM
CN(C)/N=C(\N)c1nnn(C)n1 ; read by: BACTEC ; strain or isolate: H37Rv ; kind: culture ; species: Mycobacterium tuberculosis ; endpoint: MIC ; value: ≥12.5 µg/mL
O=C(O)c1cccc2c1C(=O)c1ccccc1C2=O ; strain or isolate: H37Rv ; kind: culture ; species: Mycobacterium tuberculosis ; endpoint: MIC ; value: 50 µg/mL
Cc1ccc([N+](=O)[O-])cc1Cl ; read by: BACTEC ; dose: 12.5 µg/mL ; strain or isolate: H37Rv ; kind: culture ; species: Mycobacterium tuberculosis ; endpoint: inhibition ; value: 0%
Fc1ccc(N2CCN(c3cncc(-c4ccc5ccccc5c4)n3)CC2)cc1 ; kind: target ; species: Cytomegalovirus ; protein: UL97 kinase ; endpoint: IC50 ; value: <1 µM
COc1cccc(/C=N/NC(=O)CNC(=O)Nc2ccc(Cl)c(Cl)c2)c1OC ; read by: BACTEC ; dose: 12.5 µg/mL ; strain or isolate: H37Rv ; kind: culture ; species: Mycobacterium tuberculosis ; endpoint: inhibition ; value: 17%
O=C(Nc1nnc(NCc2ccncc2)s1)c1ccc2c(c1)C(=O)OC2=O ; kind: target ; species: Human cytomegalovirus ; protein: Polymerase ; endpoint: IC50 ; value: <25 µM
COc1c2c(c(OC)c(C(C)=O)c1OC(=O)c1ccccc1)CCO2 ; read by: BACTEC ; dose: 12.5 µg/mL ; strain or isolate: H37Rv ; kind: culture ; species: Mycobacterium tuberculosis ; endpoint: inhibition ; value: 4%
Nc1ccc2nc(-c3ccc(O)cc3)c(-c3ccc(O)cc3)nc2c1 ; strain or isolate: H37Rv ; kind: culture ; species: Mycobacterium tuberculosis ; endpoint: MIC ; value: >100 µg/mL
O=S(=O)([O-])c1ccc2c(S(=O)(=O)[O-])cc(S(=O)(=O)[O-])cc2c1 ; read by: cytopathic effect ; dose: 50 µg/mL ; kind: culture ; cells: Human embryonic lung cells ; species: Rhinovirus ; endpoint: inhibition ; value: 15%
COc1ccc(C2Oc3ccccc3C(=O)C2O)cc1 ; strain or isolate: H37Rv ; kind: culture ; species: Mycobacterium tuberculosis ; endpoint: EC50 ; value: >12.5 µg/mL
COC(=O)Nc1nc2ccc(C(=O)C3CC3)cc2[nH]1 ; read by: BACTEC ; dose: 0.5 µM ; kind: culture ; species: Mycobacterium tuberculosis ; endpoint: inhibition ; value: 0%
Cc1cccc(N(CC(N)=O)C2CCCO2)c1 ; strain or isolate: H37Rv ; kind: culture ; species: Mycobacterium tuberculosis ; endpoint: MIC ; value: 100 µg/mL
O=C(O)c1cc(S(=O)(=O)[O-])ccc1O ; read by: cytopathic effect ; dose: 50 µg/mL ; kind: culture ; cells: Human amnion AV3 cells ; species: Herpes simplex virus ; endpoint: inhibition ; value: 20%
O=c1[nH]cnc2ncnn12 ; read by: resazurin ; strain or isolate: H37Rv ; kind: culture ; species: Mycobacterium tuberculosis ; endpoint: MIC bound ; value: >6.25 µg/mL
Nc1c(S(=O)(=O)[O-])cc2cc(S(=O)(=O)[O-])ccc2c1O ; read by: cytopathic effect ; dose: 10 µg/mL ; kind: culture ; cells: Human amnion AV3 cells ; species: Herpes simplex virus ; endpoint: inhibition ; value: 0%
CCCCCCCCCCCCCCCCC(C(=O)OCC)C(=O)OCC ; strain or isolate: H37Rv ; kind: culture ; species: Mycobacterium tuberculosis ; endpoint: MIC ; value: >100 µg/mL
C=CCc1cccc2c1OC(CN1CCN(CC3COc4cccc(CC=C)c4O3)CC1)CO2.C=CCc1cccc2c1OC(CN1CCN(CC3COc4cccc(CC=C)c4O3)CC1)CO2 ; read by: BACTEC ; strain or isolate: H37Rv ; kind: culture ; species: Mycobacterium tuberculosis ; endpoint: MIC ; value: >12.5 µg/mL
CN(C)c1ccc(/C=C/C(=O)c2ccccn2)cc1 ; dose: 12.5 µg/mL ; kind: culture ; species: Mycobacterium tuberculosis ; endpoint: inhibition ; value: 16%
CC1=NN(c2ccc(N)cc2)C(=O)C1 ; strain or isolate: H37Rv ; kind: culture ; species: Mycobacterium tuberculosis ; endpoint: MIC ; value: >100 µg/mL

MIC50, MIC90 and the like: level of inhibition, or share of isolates inhibited. Lines come from different laboratories, so protocols vary. ICn: concentration for n% inhibition. ECn: concentration that inhibits the pathogen or its effect by n%. Inhibition is in % at the dose shown (toxicity tests: loss of growth or viability).